From IntAct's records for PubMed 18066077

B1: Ubiquitin-conjugating enzyme E2 L3 (Homo sapiens), P68036-1 (parent)
chain: MAASRRLMKELEEIRKCGMKNFRNIQVDEANLLTWQGLIVPDNPPYDKGAFRIEINFPAEYPFKPPKITFKTKIYHPNIDEKGQVCLPVISAENWKPATKTDQVIQSLIALVNDPQPEHPLRADLAEEYSKDRKKFCKNAEEFTKKYGEKRPVD

Variants of: B1
Details: with sopa_salty sopA

Question: How did the “effect of a mutation on the interaction” value turn out when F63A was run?
Answer: decreasing interaction
